# Assay results: patent publication US20260250325A1, “Antiviral Polypeptide Membrane Fusion Inhibitor, and Preparation Method and Application Thereof” (priority 2025, published 2026)
# Where a SMILES comes first, the peptide text is derived from it. [ ]: non-standard residue; d: D form. The star is where a group is joined. ξ: configuration not given here. Succinyl(4-O-cholesteryl) = CC(C)CCC[C@@H](C)[C@H]1CC[C@H]2[C@@H]3CC=C4C[C@@H](OC(=O)CCC(=O)*)CC[C@]4(C)[C@H]3CC[C@]12C; ξD = NC(CC(=O)O)C(=O)O
# System: RSV A long virus strain
# Format: cell-based
# Conditions: CC50/IC50, HEp-2 cells
# Procedure: In this embodiment, an RSV-A long virus strain was used as an infection virus in the present disclosure. The anti-RSV activity of the synthesized polypeptide was determined through CPE detection.
# The inhibitory activity of the compounds of Table 1-1-Table 1-5, positive polypeptide in Table 1-11, and positive control T-118 against the RSV-A long virus strain was detected.
# Human Epithelial Pharyngeal Carcinoma Cells (HEp-2) were from the American Type Culture Collection (ATCC), with a catalog number CCL-23. The cells were cultured in a DMEM culture solution in which 10% fetal bovine serum, 1% sodium pyruvate, 1% nonessential amino acids, 2 mM glutamine, 100 U/mL penicillin, and 100 μg/mL streptomycin were added. The RSV A long virus strain was from the ATCC, with a catalog number VR-26.
# This study used a plaque reduction experiment to detect the in-vitro activity of a test sample against the RSV A long virus strain. The test sample and a control compound were tested at 8 concentrations in duplicated wells. The HEp-2 cells were digested with trypsin and then diluted to a concentration of 300,000 cells per milliliter by using an experimental culture solution. The diluted cells were added to a 96-well cell test board, with 100 μL per well, corresponding to 30000 cells per well. The cells were cultured overnight in a 37° C. incubator with 5% CO2. On the second day, the test sample was diluted in an experimental culture medium at a fold ratio. The sample diluted at a fold ratio and an equal volume of virus (100 PFU per well) were well mixed and incubated at 37° C. in 5% CO2 for 1 h. Then, the culture solution in the 96-well cell test board was discarded, the sample virus mixed solution (200 μL) was added to the 96-well cell culture plate, and incubated at 37° C. in 5% CO2 for 2 hours. After 2 h, the sample virus mixed solution was discarded, and 200 μL of maintenance culture medium containing 0.8% CMC and the corresponding concentration of the test sample was added. A cell control (cells, without compound treatment or viral infection) and a viral control (cell infection virus, without compound treatment) were set. The cells were cultured for 1 day in the 37° C. incubator with 5% CO2. One day after viral infection, the culture medium was discarded, the cells were fixed with 4% paraformaldehyde, and then permeabilization was performed with 0.5% Triton X-100. After the plate was washed with DPBS, an RSV-specific antibody (RSV antibody, diluted 1:3000) was added and incubated at 37° C. for 1 h. Then, a secondary antibody (donkey anti-goat IgG, diluted 1:500) and incubated at 37° C. for 1 h. The secondary antibody was discarded, a TrueBlue solution was added, dyeing was performed for 10 min; and the plate was washed with running water and then air-dried, and the number of spots in each well was counted by using a microplate imaging counter. Raw data was used for calculating the antiviral activity of the samples.
# The raw data for plaque counts and cell viability tests were used for analyzing the antiviral activity and cytotoxicity of the test samples, respectively. A calculation formula was shown as follows.
# % inhibition rate=100−(sample value-cell control average value)/(virus control average value-cell control average value)×100%
# Non-linear fitting analysis was performed on the inhibition rate of the sample by using GraphPad Prism (version 10), so as to calculate the IC50 and CC50 values for the sample.
# IC50: in an in-vitro antiviral activity experiment, IC50 represented an inhibition ability indicator of a compound to be tested against the Hep-2 cells infected by the RSV A long virus strain.
row,Compound,Safety index (SI)
1,CC[C@H](C)[C@H](NC(=O)[C@H](CCCCN)NC(=O)[C@H](CCCCN)NC(=O)[C@H](CC(C)C)NC(=O)[C@H](CO)NC(=O)[C@H](CCC(=O)O)NC(=O)[C@H](CCC(=O)O)NC(=O)[C@@H](NC(=O)[C@H](CCCCN)NC(=O)[C@H](CCCCN)NC(=O)[C@H](CC(N)=O)NC(=O)[C@@H](NC(=O)[C@H](CCC(=O)O)NC(=O)[C@H](CCC(=O)O)NC(=O)[C@@H](NC(=O)[C@H](CCCCN)NC(=O)[C@H](CCCCN)NC(=O)[C@H](CCCCN)NC(=O)[C@H](CC(=O)O)NC(=O)[C@H](Cc1ccccc1)NC(=O)[C@H](CCC(=O)O)NC(=O)[C@H](CC(=O)O)NC(C)=O)[C@@H](C)CC)C(C)C)[C@@H](C)CC)C(=O)N[C@@H](CCC(=O)O)C(=O)N[C@@H](CCC(=O)O)C(=O)N[C@@H](CO)C(=O)N[C@@H](CC(=O)O)C(=O)N[C@@H](CCCCN)C(=O)N[C@@H](CCCCN)C(=O)N[C@@H](CC(C)C)C(=O)N[C@@H](CCC(=O)O)C(=O)N[C@@H](CCC(=O)O)C(=O)N[C@H](C(=O)NCC(=O)N[C@@H](CO)C(=O)NCC(=O)N[C@@H](CO)C(=O)NCC(=O)N[C@@H](CCCCNC(=O)CCC(=O)O[C@H]1CC[C@@]2(C)C(=CC[C@H]3[C@@H]4CC[C@H]([C@H](C)CCCC(C)C)[C@@]4(C)CC[C@@H]32)C1)C(N)=O)C(C)C [Compound 15] (Ac-DEFDKKKIEEVNKKIEESLKKIEESDKKLEEVGSGSGK(Succinyl(4-O-cholesteryl))-NH2),856
2,CC[C@H](C)[C@H](NC(=O)[C@H](CCCCN)NC(=O)[C@H](CCCCN)NC(=O)[C@H](CC(C)C)NC(=O)[C@H](CO)NC(=O)[C@H](CCC(=O)O)NC(=O)[C@H](CCC(=O)O)NC(=O)[C@@H](NC(=O)[C@H](CCCCN)NC(=O)[C@H](CCCCN)NC(=O)[C@H](CC(N)=O)NC(=O)[C@@H](NC(=O)[C@H](CCC(=O)O)NC(=O)[C@H](CCC(=O)O)NC(=O)[C@@H](NC(=O)[C@H](CCCCN)NC(=O)[C@H](CCCCN)NC(=O)[C@H](CC(=O)O)NC(=O)[C@H](Cc1ccccc1)NC(=O)[C@H](CCC(=O)O)NC(=O)[C@H](CC(=O)O)NC(=O)[C@H](CO)NC(C)=O)[C@@H](C)CC)C(C)C)[C@@H](C)CC)C(=O)N[C@@H](CCC(=O)O)C(=O)N[C@@H](CCC(=O)O)C(=O)N[C@@H](CO)C(=O)N[C@@H](CC(=O)O)C(=O)N[C@@H](CCCCN)C(=O)N[C@@H](CCCCN)C(=O)N[C@@H](CC(C)C)C(=O)N[C@@H](CCC(=O)O)C(=O)N[C@@H](C)C(=O)N[C@@H](C)C(=O)N[C@@H](C)C(=O)N[C@@H](CCCCN)C(=O)N[C@@H](CCCCNC(=O)CCC(=O)O[C@H]1CC[C@@]2(C)C(=CC[C@H]3[C@@H]4CC[C@H]([C@H](C)CCCC(C)C)[C@@]4(C)CC[C@@H]32)C1)C(N)=O [Compound 16] (Ac-SDEFDKKIEEVNKKIEESLKKIEESDKKLEAAAKK(Succinyl(4-O-cholesteryl))-NH2),1655
3,CC[C@H](C)[C@H](NC(=O)[C@H](CCCCN)NC(=O)[C@H](CCCCN)NC(=O)[C@H](CC(C)C)NC(=O)[C@H](CO)NC(=O)[C@H](CCC(=O)O)NC(=O)[C@H](CCC(=O)O)NC(=O)[C@@H](NC(=O)[C@H](CCCCN)NC(=O)[C@H](CCCCN)NC(=O)[C@H](CC(N)=O)NC(=O)[C@@H](NC(=O)[C@H](CCC(=O)O)NC(=O)[C@H](CCC(=O)O)NC(=O)[C@@H](NC(=O)[C@H](CCCCN)NC(=O)[C@H](CCCCN)NC(=O)[C@H](CC(=O)O)NC(=O)[C@H](Cc1ccccc1)NC(=O)[C@H](CCC(=O)O)NC(=O)C(CC(=O)O)NC(C)=O)[C@@H](C)CC)C(C)C)[C@@H](C)CC)C(=O)N[C@@H](CCC(=O)O)C(=O)N[C@@H](CCC(=O)O)C(=O)N[C@@H](CO)C(=O)N[C@@H](CC(=O)O)C(=O)N[C@@H](CCCCN)C(=O)N[C@@H](CCCCN)C(=O)N[C@@H](CC(C)C)C(=O)N[C@@H](CCC(=O)O)C(=O)N[C@@H](C)C(=O)N[C@@H](C)C(=O)N[C@@H](C)C(=O)N[C@@H](CCCCN)C(=O)N[C@@H](CCCCNC(=O)CCC(=O)O[C@H]1CC[C@@]2(C)C(=CC[C@H]3[C@@H]4CC[C@H]([C@H](C)CCCC(C)C)[C@@]4(C)CC[C@@H]32)C1)C(N)=O (some centres unmarked) [Compound 17] (Ac-[ξD]EFDKKIEEVNKKIEESLKKIEESDKKLEAAAKK(Succinyl(4-O-cholesteryl))-NH2),1497
4,CC[C@H](C)[C@H](NC(=O)[C@H](CCCCN)NC(=O)[C@H](CCCCN)NC(=O)[C@H](CC(C)C)NC(=O)[C@H](CO)NC(=O)[C@H](CCC(=O)O)NC(=O)[C@H](CCC(=O)O)NC(=O)[C@@H](NC(=O)[C@H](CCCCN)NC(=O)[C@H](CCCCN)NC(=O)[C@H](CC(N)=O)NC(=O)[C@@H](NC(=O)[C@H](CCC(=O)O)NC(=O)[C@H](CCC(=O)O)NC(=O)[C@@H](NC(=O)[C@H](CCCCN)NC(=O)[C@H](CCCCN)NC(=O)[C@H](CCCCN)NC(=O)[C@H](CC(=O)O)NC(=O)[C@H](Cc1ccccc1)NC(=O)[C@H](CCC(=O)O)NC(=O)C(CC(=O)O)NC(C)=O)[C@@H](C)CC)C(C)C)[C@@H](C)CC)C(=O)N[C@@H](CCC(=O)O)C(=O)N[C@@H](CCC(=O)O)C(=O)N[C@@H](CO)C(=O)N[C@@H](CC(=O)O)C(=O)N[C@@H](CCCCN)C(=O)N[C@@H](CCCCN)C(=O)N[C@@H](CC(C)C)C(=O)N[C@@H](CCC(=O)O)C(=O)N[C@@H](CCC(=O)O)C(=O)N[C@H](C(=O)NCC(=O)N[C@@H](CO)C(=O)NCC(=O)N[C@@H](CO)C(=O)NCC(=O)N[C@@H](CCCCNC(=O)CCC(=O)O[C@H]1CC[C@@]2(C)C(=CC[C@H]3[C@@H]4CC[C@H]([C@H](C)CCCC(C)C)[C@@]4(C)CC[C@@H]32)C1)C(N)=O)C(C)C (some centres unmarked) [Compound 18] (Ac-[ξD]EFDKKKIEEVNKKIEESLKKIEESDKKLEEVGSGSGK(Succinyl(4-O-cholesteryl))-NH2),333
5,CC[C@H](C)[C@H](NC(=O)[C@H](CCCCN)NC(=O)[C@H](CCCCN)NC(=O)[C@H](CC(C)C)NC(=O)[C@H](CO)NC(=O)[C@H](CCC(=O)O)NC(=O)[C@H](CCC(=O)O)NC(=O)[C@@H](NC(=O)[C@H](CCCCN)NC(=O)[C@H](CCCCN)NC(=O)[C@H](CC(N)=O)NC(=O)[C@@H](NC(=O)[C@H](CCC(=O)O)NC(=O)[C@H](CCC(=O)O)NC(=O)[C@@H](NC(=O)[C@H](CCCCN)NC(=O)[C@H](CCCCN)NC(=O)[C@H](CC(=O)O)NC(=O)[C@H](Cc1ccccc1)NC(=O)[C@H](CCC(=O)O)NC(=O)[C@H](CC(=O)O)NC(=O)[C@H](CO)NC(C)=O)[C@@H](C)CC)C(C)C)[C@@H](C)CC)C(=O)N[C@@H](CCC(=O)O)C(=O)N[C@@H](CCC(=O)O)C(=O)N[C@@H](CO)C(=O)N[C@@H](CC(=O)O)C(=O)N[C@@H](CCCCN)C(=O)N[C@@H](CCCCN)C(=O)N[C@@H](CC(C)C)C(=O)NCC(=O)N[C@@H](CO)C(=O)NCC(=O)N[C@@H](CO)C(=O)NCC(=O)N[C@@H](CCCCNC(=O)CCC(=O)O[C@H]1CC[C@@]2(C)C(=CC[C@H]3[C@@H]4CC[C@H]([C@H](C)CCCC(C)C)[C@@]4(C)CC[C@@H]32)C1)C(N)=O [Compound 20] (Ac-SDEFDKKIEEVNKKIEESLKKIEESDKKLGSGSGK(Succinyl(4-O-cholesteryl))-NH2),1470
